Anti-infective test results gathered from many reports (values: NIAID ChemDB through PubChem).

Shared fields: tests in culture

Neighbouring rows are from separate reports. Blank or dashed fields: not listed here. MIC50, MIC90 and the like: level of inhibition, or share of isolates inhibited. Inhibition is in % at the dose shown (toxicity tests: loss of growth or viability).

structure	organism	endpoint	strain or isolate	conditions	dose	method	result
CO[C@@]1(NC(=O)Cc2cccs2)C(=O)N2C(C(=O)O)=C(COC(N)=O)CS[C@@H]21	Mycobacterium fortuitum	MIC	1030-8	-	-	-	12.5 µg/mL
CC[C@H]1OC(=O)[C@H](C)[C@@H](O[C@H]2C[C@@](C)(OC)[C@@H](OC(C)=O)[C@H](C)O2)[C@H](C)[C@@H](O[C@@H]2O[C@H](C)C[C@H](N(C)C)[C@H]2O)C(C)(O)C[C@@H](C)/C(=N\OCCc2ccccc2)[C@H](C)[C@@H](O)[C@]1(C)O	Mycobacterium avium complex	MIC	20096 (clarithromycin-resistant)	-	-	-	6.25 µg/mL
CO[C@@]1(NC(=O)Cc2ccccc2)C(=O)N2C(C(=O)O)=C(COC(C)=O)CSC21	Mycobacterium fortuitum	MIC	AO5	-	-	-	50 µg/mL
O=C(NNC(=O)c1ccncc1)Nc1ccc(Br)cc1Br	Mycobacterium kansasii	MIC100	My 235/80	21 d	-	broth dilution	>125 µM
Cc1ccn2c(C(=O)NCc3ccc(Oc4ccc(C(F)(F)F)cc4)cc3)c(C)nc2c1	Mycobacterium avium	inhibition	-	-	0.44 µM	fluorescence	85%
CC[C@H]1OC(=O)[C@H](C)[C@@H](OC(=O)Cc2ccc[nH]2)[C@H](C)[C@@H](O[C@@H]2O[C@H](C)C[C@H](N(C)C)[C@H]2O)C(C)(O)C[C@@H](C)/C(=N\OCCCOc2ccccc2)[C@H](C)[C@@H](O)[C@]1(C)O	Mycobacterium avium complex	MIC	20092 (clarithromycin-resistant)	-	-	-	6.25 µg/mL
CO[C@@]1(NC(=O)Cn2cnnn2)C(=O)N2C(C(=O)O)=C(CSc3nnc(C)s3)CSC21	Mycobacterium fortuitum	MIC	1049	-	-	-	50 µg/mL
COc1ccc(-c2c(-c3ccc(OCc4ccccc4F)cc3O)n[nH]c2C(F)(F)F)cc1	Mycobacterium marinum	MIC	-	-	-	visual reading	>50 µg/mL
CCCCCCCCCCCCC(=O)O[C@H]1[C@H](C)[C@@H](O[C@@H]2O[C@H](C)C[C@H](N(C)C)[C@H]2O)C(C)(O)C[C@@H](C)/C(=N\OCCCOc2ccccc2)[C@H](C)[C@@H](O)[C@](C)(O)[C@@H](CC)OC(=O)[C@@H]1C	Mycobacterium avium complex	MIC	20092 (clarithromycin-resistant)	-	-	-	>50 µg/mL
Cc1nn2ccc(F)cc2c1C(=O)NCc1ccc(N2CCN(c3ccc(OC(F)(F)F)cc3)[C@@H](C)C2)c(F)c1.Cl	Mycobacterium avium	inhibition	-	-	0.11 µM	fluorescence	85%
CO[C@@]1(NC(=O)C(C(=O)O)c2ccc(O)cc2)C(=O)N2C(C(=O)O)=C(CSc3nnnn3C)CO[C@@H]21	Mycobacterium fortuitum	MIC	1004-8	-	-	-	>100 µg/mL
Cc1ccc2nc(C)c(C(=O)NCc3ccc(C4CCN(c5ccc(OC(F)(F)F)cc5)CC4)c(F)c3)n2c1	Mycobacterium avium	inhibition	-	-	0.0016 µM	fluorescence	85%
COc1ccc(-c2n[nH]c(C(F)(F)F)c2-c2ccc(Cl)cc2)c(O)c1	Mycobacterium marinum	MIC	-	-	-	visual reading	50 µg/mL
O=C(NNC(=O)c1ccncc1)Nc1ccc(F)cc1Br	Mycobacterium kansasii	MIC100	My 235/80	21 d	-	broth dilution	>125 µM
CO[C@@]1(NC(=O)CCCC(N)C(=O)O)C(=O)N2C(C(=O)O)=C(COC(C)=O)CSC21	Mycobacterium fortuitum	MIC	1004-8	-	-	-	>100 µg/mL
NNC(=O)c1ccncc1	Mycobacterium kansasii	MIC100	My 6509/96	21 d	-	broth dilution	8 µM
COc1ccn2nc(C)c(C(=O)NCc3ccc(N4CCN(c5ccc(OC(F)(F)F)cc5)[C@@H](C)C4)c(F)c3)c2c1.Cl	Mycobacterium avium	inhibition	-	-	0.0052 µM	fluorescence	85%
O=[N+]([O-])c1ccc(COc2ccc(-c3n[nH]c(C(F)(F)F)c3-c3ccccc3)c(O)c2)cc1	Mycobacterium marinum	MIC	-	-	-	visual reading	>50 µg/mL
CO[C@H]1/C=C/O[C@@]2(C)Oc3c(C)c(O)c4c(O)c(c(/C=N/N5CCN(C6CCCC6)CC5)c(O)c4c3C2=O)NC(=O)/C(C)=C\C=C\[C@H](C)[C@H](O)[C@@H](C)[C@@H](O)[C@@H](C)[C@H](OC(C)=O)[C@@H]1C	Mycobacterium avium intracellulare	MIC	LPR	-	-	-	0.5 µg/mL
COc1ccn2nc(C)c(C(=O)NCc3ccc(N4CCC(c5ccc(OC(F)(F)F)cc5)CC4)cc3)c2c1	Mycobacterium avium	inhibition	-	-	0.028 µM	fluorescence	85%
CC1(C)N=C(N)N=C(N)N1OCCCOc1cc(Cl)c(Cl)cc1Cl	Mycobacterium avium complex	MIC	CFR	-	-	-	1 µg/mL
CC[C@H]1OC(=O)[C@H](C)[C@@H](O[C@H]2C[C@@](C)(OC)[C@@H](OC(C)=O)[C@H](C)O2)[C@H](C)[C@@H](O[C@@H]2O[C@H](C)C[C@H](N(C)C)[C@H]2O)C(C)(O)C[C@@H](C)/C(=N\OC)[C@H](C)[C@@H](O)[C@]1(C)O	Mycobacterium avium complex	MIC	20039 (clarithromycin-susceptible)	-	-	-	6.25 µg/mL
CCc1nc2ccc(Cl)cn2c1C(=O)NCc1ccc(N2C[C@H](C)N(c3ccc(OC(F)(F)F)cc3)C[C@H]2C)c(F)c1	Mycobacterium avium	inhibition	-	-	0.011 µM	fluorescence	85%
CCC(=O)O[C@H]1[C@H](C)[C@@H](O[C@@H]2O[C@H](C)C[C@H](N(C)C)[C@H]2O)C(C)(O)C[C@@H](C)/C(=N\OCCCOc2ccccc2)[C@H](C)[C@@H](O)[C@](C)(O)[C@@H](CC)OC(=O)[C@@H]1C	Mycobacterium avium complex	MIC	20039 (clarithromycin-susceptible)	-	-	-	12.5 µg/mL
O=C(NNC(=O)c1ccncc1)Nc1ccc(Br)c(F)c1	Mycobacterium kansasii	MIC100	My 235/80	14 d	-	broth dilution	>125 µM
C[C@H]1CN(c2ccc(CNC(=O)c3c(Cl)nc4ccccn34)cc2F)CCN1c1ccc(OC(F)(F)F)cc1.Cl	Mycobacterium avium	inhibition	-	-	0.011 µM	fluorescence	85%
COc1ccc(-c2c(-c3ccc(O)cc3O)n[nH]c2C(F)(F)F)cc1OC	Mycobacterium marinum	MIC	-	-	-	visual reading	>50 µg/mL
Cc1nn2ccc(Br)cc2c1C(=O)NCc1ccc(N2CCN(c3ccc(OC(F)(F)F)cc3)[C@@H](C)C2)c(F)c1.Cl	Mycobacterium avium	inhibition	-	-	0.066 µM	fluorescence	85%
CC[C@H]1OC(=O)[C@H](C)[C@@H](OC2C[C@@](C)(OC)[C@@H](OC(=O)CC3CCCCC3)[C@H](C)O2)[C@H](C)[C@@H](O[C@@H]2O[C@H](C)C[C@H](N(C)C)[C@H]2O)C(C)(O)C[C@@H](C)/C(=N\OCCCOc2ccccc2)[C@H](C)[C@@H](O)[C@]1(C)O	Mycobacterium avium complex	MIC	20096 (clarithromycin-resistant)	-	-	-	1.56 µg/mL
COc1ccc(NC(=O)NNC(=O)c2ccncc2)cc1	Mycobacterium kansasii	MIC100	My 235/80	21 d	-	broth dilution	>125 µM
CC[C@H]1OC(=O)[C@H](C)[C@@H](O[C@H]2C[C@@](C)(OC)[C@@H](OC(C)=O)[C@H](C)O2)[C@H](C)[C@@H](O[C@@H]2O[C@H](C)C[C@H](N(C)C)[C@H]2OC(=O)NNCCOc2ccccc2)C(C)(O)C[C@@H](C)/C(=N\OCCCC2CCCCC2)[C@H](C)[C@@H](O)[C@]1(C)O	Mycobacterium avium complex	MIC	20096 (clarithromycin-resistant)	-	-	-	1.56 µg/mL
CC(C)c1ccc(NC(=O)NNC(=O)c2ccncc2)cc1	Mycobacterium kansasii	MIC100	My 235/80	21 d	-	broth dilution	32 µM

A second listing of 4 rows from above:

structure | organism | endpoint | strain or isolate | conditions | dose | method | result
CO[C@H]1/C=C/O[C@@]2(C)Oc3c(C)c(O)c4c(O)c(c(/C=N/N5CCN(C6CCCC6)CC5)c(O)c4c3C2=O)NC(=O)/C(C)=C\C=C\[C@H](C)[C@H](O)[C@@H](C)[C@@H](O)[C@@H](C)[C@H](OC(C)=O)[C@@H]1C | Mycobacterium avium intracellulare | MIC | LPR | - | - | - | 0.5 µg/mL
CCCCCCCCCCCCC(=O)O[C@H]1[C@H](C)[C@@H](O[C@@H]2O[C@H](C)C[C@H](N(C)C)[C@H]2O)C(C)(O)C[C@@H](C)/C(=N\OCCCOc2ccccc2)[C@H](C)[C@@H](O)[C@](C)(O)[C@@H](CC)OC(=O)[C@@H]1C | Mycobacterium avium complex | MIC | 20092 (clarithromycin-resistant) | - | - | - | >50 µg/mL
CO[C@@]1(NC(=O)Cn2cnnn2)C(=O)N2C(C(=O)O)=C(CSc3nnc(C)s3)CSC21 | Mycobacterium fortuitum | MIC | 1049 | - | - | - | 50 µg/mL
CCc1nc2ccc(Cl)cn2c1C(=O)NCc1ccc(N2C[C@H](C)N(c3ccc(OC(F)(F)F)cc3)C[C@H]2C)c(F)c1 | Mycobacterium avium | inhibition | - | - | 0.011 µM | fluorescence | 85%